Results deposited as PubChem BioAssay AID1224833 (University of Georgia, 2016)
Here is a random part of about 12,000 deposited reagents. About 5,600 of them (46%) count as active. 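Active calls cover z-scores past 1 in both directions, so they include lowered as well as raised rotavirus replication.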 Unmarked entries are inactive.

Assay: 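Human genes whose knock-down alters rotavirus replication in monkey cells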 (primary screen)
Cells: monkey MA104 kidney cells
Knock-down reagent: siRNA pool against human genes, 50 nM
Duration: 48 h knock-down before infection; read 24 h after infection
Conditions: infection with rotavirus strain RV3 two days after transfection; infectious dose for this stage not given
Measured: 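Rotavirus antigen per well by fluorescent immunoassay, normalised to non-targeting control wells on each plate and given as a standard z-score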
Direction: z-score vs non-targeting control: higher = more rotavirus replication than with non-targeting control
Rule for the call: In these data the active calls have z-score vs non-targeting control at about -1 or lower, or at about 1 or higher
Calls: active = z-score beyond 1 either way; inactive = z-score within 1 of zero

KYAT3 (GeneID 56267) | z-score vs non-targeting control = -1.05 (active)
TIMELESS (GeneID 8914) | z-score vs non-targeting control = 0.933
CCL13 (GeneID 6357) | z-score vs non-targeting control = 1.42 (active)
NIFK (GeneID 84365) | z-score vs non-targeting control = -0.937
KRTAP10-11 (GeneID 386678) | z-score vs non-targeting control = -0.188
PCNX2 (GeneID 80003) | z-score vs non-targeting control = -0.594
COLEC10 (GeneID 10584) | z-score vs non-targeting control = -2.75 (active)
COXFA4L3 (GeneID 84419) | z-score vs non-targeting control = -1.56 (active)
NEDD1 (GeneID 121441) | z-score vs non-targeting control = -0.306
BNIPL (GeneID 149428) | z-score vs non-targeting control = -0.209
UGCG (GeneID 7357) | z-score vs non-targeting control = -2.01 (active)
IL17F (GeneID 112744) | z-score vs non-targeting control = -0.596
ZBTB25 (GeneID 7597) | z-score vs non-targeting control = -0.979
THEMIS (GeneID 387357) | z-score vs non-targeting control = 0.41
SLC27A2 (GeneID 11001) | z-score vs non-targeting control = -0.483
ZNF124 (GeneID 7678) | z-score vs non-targeting control = -0.257
CENPB (GeneID 1059) | z-score vs non-targeting control = -0.957
SLC14A1 (GeneID 6563) | z-score vs non-targeting control = -3.42 (active)

Reagents listed above with an active call (6):
KYAT3 (GeneID 56267) | z-score vs non-targeting control = -1.05 (active)
CCL13 (GeneID 6357) | z-score vs non-targeting control = 1.42 (active)
COLEC10 (GeneID 10584) | z-score vs non-targeting control = -2.75 (active)
COXFA4L3 (GeneID 84419) | z-score vs non-targeting control = -1.56 (active)
UGCG (GeneID 7357) | z-score vs non-targeting control = -2.01 (active)
SLC14A1 (GeneID 6563) | z-score vs non-targeting control = -3.42 (active)

Continued.
ESRRG (GeneID 2104) | z-score vs non-targeting control = -1.04 (active)
P2RY4 (GeneID 5030) | z-score vs non-targeting control = -2.15 (active)
S100A8 (GeneID 6279) | z-score vs non-targeting control = -1.14 (active)
CRLF2 (GeneID 64109) | z-score vs non-targeting control = -0.545
DRD5 (GeneID 1816) | z-score vs non-targeting control = -0.678
MEIOC (GeneID 284071) | z-score vs non-targeting control = -0.506
L3MBTL3 (GeneID 84456) | z-score vs non-targeting control = -1.07 (active)
CBX6 (GeneID 23466) | z-score vs non-targeting control = -0.814
FILIP1 (GeneID 27145) | z-score vs non-targeting control = 0.787
PACSIN2 (GeneID 11252) | z-score vs non-targeting control = -2.19 (active)
SLPI (GeneID 6590) | z-score vs non-targeting control = -1.14 (active)
PSG1 (GeneID 5669) | z-score vs non-targeting control = 1.19 (active)
ZNF200 (GeneID 7752) | z-score vs non-targeting control = -1.31 (active)
PAM16 (GeneID 51025) | z-score vs non-targeting control = -1.19 (active)
SERHL2 (GeneID 253190) | z-score vs non-targeting control = -1.32 (active)
LZTS2 (GeneID 84445) | z-score vs non-targeting control = -0.856
CD79B (GeneID 974) | z-score vs non-targeting control = 1.35 (active)
TC2N (GeneID 123036) | z-score vs non-targeting control = -0.743
SESN2 (GeneID 83667) | z-score vs non-targeting control = 0.63
NCK2 (GeneID 8440) | z-score vs non-targeting control = -0.974
NSFL1C (GeneID 55968) | z-score vs non-targeting control = -0.536
TMEM50A (GeneID 23585) | z-score vs non-targeting control = -0.483
SMAD6 (GeneID 4091) | z-score vs non-targeting control = 0.676
HHLA2 (GeneID 11148) | z-score vs non-targeting control = -1.86 (active)
HEMGN (GeneID 55363) | z-score vs non-targeting control = -0.371
RBMY1B (GeneID 378948) | z-score vs non-targeting control = -0.327
BMP10 (GeneID 27302) | z-score vs non-targeting control = 1.12 (active)
VEGFA (GeneID 7422) | z-score vs non-targeting control = 0.504
SAMD12 (GeneID 401474) | z-score vs non-targeting control = 1.37 (active)
